Test results as given in US20240254204A1.

Target: spikes of the eight spike-pseudotyped reporter viruses
Test: cell-based or functional assay

S2X259 (VirBiotech) (antibody)
pseudovirus neutralization, potency against the three mAbs of the study: 10 fold
